Results of unrelated studies side by side (data: NIAID ChemDB).

Common to all: cytotoxicity tests; cell line: MT-4; endpoint: CC50

CCn: concentration that lowers growth or viability of the cells by n%.

structure,value
O=c1cc(Cc2ccccc2)nc(OCCCCO)[nH]1,>1000 µM
CCOc1cccc(F)c1CCNC(=S)Nc1nccs1,37 µM
O=c1cc(Cc2ccccc2)nc(OC2CCCC2)[nH]1,466 µM
COc1cccc(F)c1C1SCC(=O)N1c1cccc(C)c1,144.4 µM
COc1ncnc(NS(=O)(=O)c2ccc(N=C3C(=O)N(CN4CCCC4)c4ccc(C)cc43)cc2)c1OC,10.1 µg/mL
COc1ccccc1N1CCN(c2c(F)cc3c(=O)c(C(=O)O)cn(C4CC4)c3c2OC(F)F)CC1,6 µg/mL
COc1ncnc2c1ncn2O[C@@H]1CO[C@@H](CO)O1,>100 µg/mL
N#Cc1csc(NC(=S)NCCc2c(F)cccc2F)n1,10 µM
CC(NS(=O)(=O)c1ccc(Cl)cc1)c1nnc(SCc2ccc(Br)cc2)o1,>12.33 µg/mL
COc1cccc(F)c1C1SCC(=O)N1c1nccc(C)n1,317.4 µM
CC(CNC(=S)Nc1nccs1)c1ccccc1,87 µM
Cc1ccc(S(=O)(=O)NC(Cc2ccccc2)c2nnc(SCc3ccccc3)o2)cc1,11.67 µg/mL
COc1cccc(OC)c1CCNC(=S)Nc1nccs1,37 µM
COc1cccc(N2C(=O)CSC2c2c(F)cccc2F)c1,151 µM
CCC(CC)Cn1c(-c2ccccc2F)nc2c(OC)cccc21,11.68 µg/mL
COc1ccc(-c2nnc(-c3ccc(N)cc3)o2)cc1,99 µg/mL
O=c1[nH]cnc2c1ncn2O[C@@H]1CS[C@@H](CO)O1,>100 µg/mL
Fc1cccc(F)c1CCNC(=S)Nc1ccc(Cl)cn1,>25 µg/mL
Cc1c(Sc2ccccc2)n(COCCNc2ccccc2)c(=O)[nH]c1=O,>1 µM
CCCCCOc1nc(Cc2ccccc2)c(C)c(=O)[nH]1,195 µM
COc1ncnc(NS(=O)(=O)c2ccc(N=C3C(=O)N(CN4CCCC4)c4ccccc43)cc2)c1OC,2.4 µg/mL
Cc1cn([C@H]2CC=C[C@@H](CO)O2)c(=O)[nH]c1=O,>100 µM
COc1cccc2c1nc(-c1ccccc1F)n2Cc1ccc2ccccc2c1,>4 µg/mL
CCc1c(Sc2ccccc2)n(C/C=C/c2ccccc2)c(=O)[nH]c1=O,>1 µM
Nc1ccn([C@H]2CC=C[C@@H](CO)O2)c(=O)n1,>100 µM
CSCCC(NS(=O)(=O)c1ccc(Cl)cc1)c1nnc(SCc2ccc(F)cc2)o1,13.65 µg/mL
O=c1ccn([C@H]2CO[C@@H](CO)S2)c(=O)[nH]1,>100 µg/mL
Fc1ccccc1CCNC(=S)Nc1nccs1,75 µM
O=S(=O)(O)c1cc(N=C=S)ccc1/C=C/c1ccc(N=C=S)cc1S(=O)(=O)O,>500 µM
COc1ccccc1N1CCN(c2c(F)c(N)c3c(=O)c(C(=O)O)cn(C(C)C)c3c2OC(F)F)CC1,1.1 µg/mL
COCCNC(=O)c1c(O)c2ncc(Cc3ccc(F)cc3)cc2n(C)c1=O,>20 µM
CCCOc1nc(Cc2ccccc2)c(CC)c(=O)[nH]1,216 µM
Cc1ccc2c(c1)C(=O)N(CCOC(=S)Nc1ccc(F)cc1)C2=O,>100 µM
Cc1ncc(CO)c(C=O)c1O,200 µM
Cc1ccc2c(c1)C(=O)N(CCOC(=S)Nc1ccc(C#N)cc1)C2=O,>100 µM
CCOC(=O)c1ccc2n1S(=O)(=O)c1cc(Cl)ccc1N2C(N)=O,70 µM
COc1cccc(N2C(=O)CSC2c2c(Cl)cccc2Cl)c1,32.74 µM
Cc1cn([C@@H]2CO[C@@H](CO)S2)c(=O)[nH]c1=O,>100 µg/mL
COc1c(Cl)cc(C(=CCCCCN[C@@H]2CC[C@]3(C)C4CC[C@@]5(C)C(CC[C@@H]5C(C)CCCC(C)C)C4CC[C@H]3C2)c2cc(Cl)c(OC)c(C(=O)O)c2)cc1C(=O)O,>150 µM
OC[C@@H]1OC[C@H](On2cnc3c(Cl)ncnc32)O1,>100 µg/mL
COc1cccc(OC)c1C1SCC(=O)N1c1cc(C)cc(C)n1,310 µM
Fc1cccc(F)c1CCNC(=S)Nc1ccc(Br)c(Cl)n1,>25 µg/mL
CC(C)(C)OC(=O)N(CCCCCC(=O)Nc1ccn([C@H]2CS[C@@H](CO)O2)c(=O)n1)Cc1ccccc1,100 µM
O=C1CSC(c2c(F)cccc2F)N1c1cc(F)cc(F)c1,139 µM
Nc1ccn([C@@H]2CO[C@@H](CO)S2)c(=O)n1,>100 µg/mL
Cc1c(Cc2ccccc2)nc(OC(C)C)[nH]c1=O,243 µM
Nc1ccn([C@H]2CO[C@@H](CO)S2)c(=O)n1,10 µg/mL
COc1ccc(NC(=S)N/N=C2\CC(C)CCC2C(C)C)cc1,84.6 µg/mL
Cc1ccnc(N2C(=O)CSC2c2c(F)ccc(C)c2Cl)c1,295.3 µM
Cc1c(Sc2ccccc2)n(COCCN2CCNCC2)c(=O)[nH]c1=O,>1 µM
O=c1[nH]cnc2c1ncn2O[C@H]1CO[C@@H](CO)O1,>100 µg/mL
Cc1c(Sc2ccccc2)n(COCCNC(=O)CNCP(=O)(O)O)c(=O)[nH]c1=O,>1 µM
Cc1cccc(NC(=S)NCCc2c(F)cccc2F)n1,>123 µg/mL
C[C@]12CCC3C(CC[C@H]4C[C@@H](CC=C(c5cc(Cl)c(O)c(C(=O)O)c5)c5cc(Cl)c(O)c(C(=O)O)c5)CC[C@]34C)C1CC[C@@H]2CC=C(c1cc(Cl)c(O)c(C(=O)O)c1)c1cc(Cl)c(O)c(C(=O)O)c1,115 µM
COc1ncnc(NS(=O)(=O)c2ccc(N=C3C(=O)N(CN4CCOCC4)c4ccccc43)cc2)c1OC,2.2 µg/mL
Cc1c(Cc2ccccc2)[nH]c(=O)[nH]c1=O,>1000 µM
C[C@]12CCC3C(CC[C@H]4C[C@@H](CCC=C(c5cc(Cl)c(O)c(C(=O)O)c5)c5cc(Cl)c(O)c(C(=O)O)c5)CC[C@]34C)C1CC[C@@H]2CCC=C(c1cc(Cl)c(O)c(C(=O)O)c1)c1cc(Cl)c(O)c(C(=O)O)c1,>125 µM
Cc1ccc(-c2nnc(-c3ccc(N)cc3)o2)cc1,35 µg/mL
CCOC(=O)c1cccn1S(=O)(=O)c1cc(Cl)ccc1NC(=O)COC,136.7 µM
Cc1ccc(-c2nnc(-c3ccc(NS(=O)(=O)c4ccc(C)cc4)cc3)o2)cc1,119 µg/mL
COc1cccc(OC)c1C1SCC(=O)N1c1cccc(C)c1,208.7 µM
O=S(=O)(O)c1cc(O)c2c(NS(=O)(=O)c3ccc(-c4ccc(S(=O)(=O)Nc5cc(S(=O)(=O)O)cc6cc(S(=O)(=O)O)cc(O)c56)cc4)cc3)cc(S(=O)(=O)O)cc2c1,310 µg/mL
Fc1cccc(F)c1CCNC(=S)Nc1ccc(Br)c(Br)n1,>25 µg/mL
Cc1c(Sc2ccccc2)n(C/C=C/c2cccnc2)c(=O)[nH]c1=O,>1 µM
COc1cccc(F)c1C1SCC(=O)N1c1cccc(C)n1,165.9 µM
O=C(CCCCCNCCCCCCNCc1ccccc1)Nc1ccn([C@H]2CS[C@@H](COC(=O)CCCCCNCCCCCCNCc3ccccc3)O2)c(=O)n1,10 µM
CC(=O)N[C@@H](CCC(N)=O)C(=O)N[C@@H](C)C(=O)N[C@@H](CC(C)C)[C@@H](O)CC(=O)N[C@H](C(=O)N[C@H](C(N)=O)C(C)C)C(C)C,1200 µM
O=S(=O)(NCCCc1n[nH]c(=S)o1)c1ccc(Cl)cc1,74 µg/mL
COc1ccccc1N1CCN(c2c(F)cc3c(=O)c(C(=O)O)cn(CCF)c3c2OC)CC1,10 µg/mL
CCc1nc(NCN2C(=O)C(=Nc3ccc(S(=O)(=O)Nc4ncnc(OC)c4OC)cc3)c3ccccc32)nc(N)c1-c1ccc(Cl)cc1,2.1 µg/mL
O=C(CCCCCNCCCCCNCc1ccccc1)Nc1ccn([C@H]2CS[C@@H](CO)O2)c(=O)n1,>50 µM
CCc1nc(NCN2C(=O)C(=Nc3ccc(S(=O)(=O)Nc4ncnc(OC)c4OC)cc3)c3cc(C)ccc32)nc(N)c1-c1ccc(Cl)cc1,7.1 µg/mL
O=c1ccn([C@H]2C=CC[C@@H](CO)O2)c(=O)[nH]1,>100 µM
COc1cccc(N2CCN(c3c(F)cc4c(=O)c(C(=O)O)cn(C5CC5)c4c3OC(F)F)CC2)c1,24.86 µg/mL
Cc1c(Sc2ccccc2)n(C/C=C/c2ccco2)c(=O)[nH]c1=O,>1 µM
Fc1cccc(F)c1CCNC(=S)Nc1ncc(Br)cn1,>5 µg/mL
COc1cccc(F)c1C1SCC(=O)N1c1cc(C)ccn1,≥220 µM
CC(C)(C)OC(=O)N(CCCCCCN(Cc1ccccc1)C(=O)OC(C)(C)C)CCCCCC(=O)Nc1ccn([C@@H]2CS[C@@H](COC(=O)CCCCCN(CCCCCCN(Cc3ccccc3)C(=O)OC(C)(C)C)C(=O)OC(C)(C)C)O2)c(=O)n1,10 µM
COc1c(Cl)cc(C(=CCCNC(=O)C[C@H]2CC[C@]3(C)C4CC[C@@]5(C)C(CC[C@@H]5CC(=O)NCCC=C(c5cc(Cl)c(OC)c(C(=O)O)c5)c5cc(Cl)c(OC)c(C(=O)O)c5)C4CC[C@H]3C2)c2cc(Cl)c(OC)c(C(=O)O)c2)cc1C(=O)O,>125 µM
CSCCC(NS(=O)(=O)c1ccc(C)cc1)c1nnc(SCc2ccc(Cl)cc2)o1,13 µg/mL
CC1CCC(C(C)C)/C(=N/NC(=S)Nc2cccc(Cl)c2)C1,44.6 µg/mL
Nc1ncnc2c1ncn2O[C@@H]1CS[C@@H](CO)O1,>100 µg/mL
CCOC(=O)c1cccn1S(=O)(=O)c1ccc(NC=O)cc1,114 µM
O=C(CCCCCNCc1ccccc1)Nc1ccn([C@H]2CS[C@@H](CO)O2)c(=O)n1,>50 µM
CCOC(=O)c1cccn1S(=O)(=O)c1cc(Cl)ccc1NC(=O)c1ccccc1,155 µM
CCc1csc(NC(=S)NCCc2c(F)cccc2F)n1,>305 µM
COc1ncnc(NS(=O)(=O)c2ccc(N=C3C(=O)Nc4ccccc43)cc2)c1OC,103.7 µg/mL
CN(C(=S)NCCc1ccccc1)c1nccs1,65 µM
CCn1cc(C(=O)O)c(=O)c2cc(F)c(N3CCN(c4ncccn4)CC3)nc21,16.8 µg/mL
S=C(NCCc1ccncc1)Nc1nccs1,113 µM
O=C1CSC(c2c(F)cccc2F)N1c1cc(Cl)cc(Cl)c1,113 µM
CC1CCC(C(C)C)/C(=N/NC(=O)Nc2ccc(Cl)cc2)C1,28.4 µg/mL
O=C1c2ccccc2C(=O)N1CCOC(=S)Nc1ccc(Cl)c(C(F)(F)F)c1,>100 µM
CCOC(=O)c1cccn1S(=O)(=O)c1cc(Cl)ccc1NC(=O)CSC,170 µM
Cc1csc(NC(=S)NCCc2ccccc2)n1,>360 µM
Cc1cn([C@H]2C=C[C@@H](CP(=O)(O)O)O2)c(=O)[nH]c1=O,196 µg/mL
C=CCn1c(-c2ccccc2F)nc2c(OC)cccc21,>30.5 µg/mL
O=C(CCCCCNCCCCCCNCc1ccccc1)Nc1ccn([C@H]2CS[C@@H](CO)O2)c(=O)n1,10 µM
Cc1ccc2c(c1)C(=O)N(CCOC(=S)Nc1ccc(Cl)c(C(F)(F)F)c1)C2=O,>100 µM
COc1cccc2c1nc(-c1ccccc1F)n2CC#N,110 µg/mL

Repeating the first 10 entries:

structure	value
O=c1cc(Cc2ccccc2)nc(OCCCCO)[nH]1	>1000 µM
CCOc1cccc(F)c1CCNC(=S)Nc1nccs1	37 µM
O=c1cc(Cc2ccccc2)nc(OC2CCCC2)[nH]1	466 µM
COc1cccc(F)c1C1SCC(=O)N1c1cccc(C)c1	144.4 µM
COc1ncnc(NS(=O)(=O)c2ccc(N=C3C(=O)N(CN4CCCC4)c4ccc(C)cc43)cc2)c1OC	10.1 µg/mL
COc1ccccc1N1CCN(c2c(F)cc3c(=O)c(C(=O)O)cn(C4CC4)c3c2OC(F)F)CC1	6 µg/mL
COc1ncnc2c1ncn2O[C@@H]1CO[C@@H](CO)O1	>100 µg/mL
N#Cc1csc(NC(=S)NCCc2c(F)cccc2F)n1	10 µM
CC(NS(=O)(=O)c1ccc(Cl)cc1)c1nnc(SCc2ccc(Br)cc2)o1	>12.33 µg/mL
COc1cccc(F)c1C1SCC(=O)N1c1nccc(C)n1	317.4 µM

Neighbouring rows are from separate reports.